Pooled drug test results. Numbers come from NIAID ChemDB, via PubChem.

All rows: tests in culture; species: Aspergillus clavatus; endpoint: MIC

Rows are shuffled and stem from different studies.

SMILES	strain or isolate	read by	value
CCN1CCN(c2nc(Nc3ccc(C#N)c(C(F)(F)F)c3)nc(Oc3cccc4cccnc34)n2)CC1	MTCC 1323	agar	50 µg/mL
N#Cc1ccc(Nc2nc(Oc3ncnc4ccccc34)nc(N3CCN(c4ncccn4)CC3)n2)cc1C(F)(F)F	MTCC 1323		>100 µg/mL
N#Cc1ccc(Nc2nc(Oc3cccc4cccnc34)nc(N3CCN(c4ncccn4)CC3)n2)cc1C(F)(F)F	MTCC 1323	agar	12.5 µg/mL
CCN1CCN(c2nc(NN=C3SCC(=O)N3c3ccccc3Cl)nc3ccccc23)CC1	MTCC 1323	agar / visual reading	3.12 µg/mL
CN(C)c1ccc(/C=C2/SC(=O)N(CC(=O)Nc3nc4ccc(SC#N)cc4s3)C2=O)cc1	MTCC 1323	broth dilution / visual reading	500 µg/mL
CC(=O)N1CCN(c2nc(NCCNc3ncnc4c(Br)cc(Br)cc34)nc(NC3CC3)n2)CC1	MTCC 1323	agar	50 µg/mL
N#Cc1ccc(Nc2nc(Oc3ncnc4ccccc34)nc(N3CCOCC3)n2)cc1C(F)(F)F	MTCC 1323		>100 µg/mL
Cc1nn(-c2ccccc2)c2c1C(c1ccc(Cl)cc1)c1c(nc(=O)[nH]c1N)O2	MTCC 1323		>1000 µg/mL
COc1cccc(-c2cc(-c3cc4cc(F)ccc4oc3=O)nc(NS(=O)(=O)c3ccccc3)c2C#N)c1	MTCC 1323	turbidity	200 µg/mL
N#Cc1ccc(Nc2nc(Oc3cccc4cccnc34)nc(N3CCOCC3)n2)cc1C(F)(F)F	MTCC 1323	agar	25 µg/mL
N#Cc1c(-c2ccc(F)cc2)cc(-c2cc3cc(F)ccc3oc2=O)nc1NS(=O)(=O)c1ccccc1	MTCC 1323	turbidity	1000 µg/mL
CCN1CCN(c2nc(NN=C3SCC(=O)N3c3ccccc3F)nc3ccccc23)CC1	MTCC 1323	agar / visual reading	25 µg/mL
FC(F)(F)c1cccc(N2CCN(c3nc(Cl)nc(NC4CC4)n3)CC2)c1	MTCC 1323	agar	50 µg/mL
COc1ccc(NC(=O)CSc2nnc(-c3ccc4ncccc4c3)o2)cc1		agar	100 µg/mL
N#Cc1ccc(Nc2nc(Oc3ncnc4ccccc34)nc(N3CCN(c4ccccc4)CC3)n2)cc1C(F)(F)F	MTCC 1323		>100 µg/mL
N#Cc1ccc(Nc2nc(Oc3cccc4cccnc34)nc(N3CCN(c4cccc(Cl)c4Cl)CC3)n2)cc1C(F)(F)F	MTCC 1323	agar	6.25 µg/mL
CCN1CCN(c2nc(NN=C3SCC(=O)N3c3ccccc3)nc3ccccc23)CC1	MTCC 1323	agar / visual reading	50 µg/mL
Clc1cccc(N2CCN(c3nc(Cl)nc(NC4CC4)n3)CC2)c1	MTCC 1323	agar	200 µg/mL
COc1ccc(/C=C2/SC(=O)N(CC(=O)Nc3nc4ccc(SC#N)cc4s3)C2=O)cc1	MTCC 1323	broth dilution / visual reading	1000 µg/mL
COc1ccc(N2CCN(c3nc(NCCNc4ncnc5c(Br)cc(Br)cc45)nc(NC4CC4)n3)CC2)cc1	MTCC 1323	agar	12.5 µg/mL
Cc1nn(-c2ccccc2)c2c1C(c1cccc([N+](=O)[O-])c1)C(C#N)=C(N)O2	MTCC 1323		1000 µg/mL
N#CSc1ccc2nc(NC(=O)CN3C(=O)S/C(=C/c4cccc(-c5ccco5)c4)C3=O)sc2c1	MTCC 1323	broth dilution / visual reading	250 µg/mL
CN1CCN(c2nc(Nc3ccc(C#N)c(C(F)(F)F)c3)nc(Oc3ncnc4ccccc34)n2)CC1	MTCC 1323		>100 µg/mL
S=C(Nc1ccccc1)Nc1nc(N2CCN(c3ccccc3)CC2)c2ccccc2n1	MTCC 1323	agar / visual reading	400 µg/mL
CCOc1ccc2nc(NC(=O)CSc3nnc(-c4ccc5ncccc5c4)o3)sc2c1		agar	50 µg/mL
N#CSc1ccc2nc(NC(=O)CN3C(=O)S/C(=C/c4ccc(Cl)cc4)C3=O)sc2c1	MTCC 1323	broth dilution / visual reading	>1000 µg/mL
Fc1ccc(N2CCN(c3nc(NCCNc4ncnc5c(Br)cc(Br)cc45)nc(NC4CC4)n3)CC2)cc1	MTCC 1323	agar	50 µg/mL
N#Cc1c(-c2ccc(O)cc2)cc(-c2cc3cc(F)ccc3oc2=O)nc1NS(=O)(=O)c1ccccc1	MTCC 1323	turbidity	500 µg/mL
N#CSc1ccc2nc(NC(=O)CCl)sc2c1	MTCC 1323	broth dilution / visual reading	500 µg/mL
Fc1ccccc1N1CCN(c2nc(NCCNc3ncnc4c(Br)cc(Br)cc34)nc(NC3CC3)n2)CC1	MTCC 1323	agar	100 µg/mL
CCN1CCN(c2nc(Nc3ccc(C(=O)/C=C/c4ccccc4O)cc3)nc3ccccc23)CC1	MTCC 1323	agar / visual reading	50 µg/mL
COc1ccc(CN2CCN(c3nc(Cl)nc(NC4CC4)n3)CC2)c(OC)c1OC	MTCC 1323	agar	25 µg/mL
O=C(CSc1nnc(-c2ccc3ncccc3c2)o1)Nc1nc2ccccc2s1		agar	100 µg/mL
CCN1CCN(c2nc(Nc3ccc(C(=O)/C=C/c4ccco4)cc3)nc3ccccc23)CC1	MTCC 1323	agar / visual reading	25 µg/mL
Cc1nn(-c2ccccc2)c2c1C(c1ccc(F)cc1)c1c(nc(=O)[nH]c1N)O2	MTCC 1323		500 µg/mL
CCN1CCN(c2nc(Nc3ccc(C(=O)/C=C/c4ccc(OC)c(OC)c4)cc3)nc3ccccc23)CC1	MTCC 1323	agar / visual reading	3.12 µg/mL
N#Cc1c(-c2cccc(F)c2)cc(-c2cc3cc(F)ccc3oc2=O)nc1NS(=O)(=O)c1ccccc1	MTCC 1323	turbidity	500 µg/mL

For reference, 2 entries again:

SMILES,strain or isolate,read by,value
CN(C)c1ccc(/C=C2/SC(=O)N(CC(=O)Nc3nc4ccc(SC#N)cc4s3)C2=O)cc1,MTCC 1323,broth dilution / visual reading,500 µg/mL
N#Cc1ccc(Nc2nc(Oc3ncnc4ccccc34)nc(N3CCN(c4ccccc4)CC3)n2)cc1C(F)(F)F,MTCC 1323,,>100 µg/mL

Blank or dashed fields: not listed here.